Measured values from several laboratories, pooled; numbers as filed in NIAID ChemDB.

Common to all: cytotoxicity tests; cell line: MT-4; endpoint: CC50

CCn: concentration that lowers growth or viability of the cells by n%. Lines come from different laboratories, so protocols vary.

structure	method	value
N#Cc1cccc(-c2cc(-c3nccc4c3CNC4=O)nn2-c2ccc(F)cc2)c1	resazurin	>3.3 µM
N#Cc1cc(Cl)cc(Oc2cc(Cl)cc(OCc3[nH]nc4ccccc34)c2)c1	microscopy	>20 µM
O=C1NCc2c1ccnc2-c1cc(-c2cc(Cl)cc(OC(F)(F)F)c2)n(-c2ccc(F)c(Cl)c2)n1	resazurin	>3.3 µM
C[C@H]1CC[C@]2(CC(=O)N(CCc3ccccc3)O2)[C@H]2CN1C(=O)c1c(O)c(=O)c(C(=O)NCc3c(F)cc(F)cc3F)cn12	luminescence	50 µM
COC1=NO[C@@]2(CC[C@H](C)N3C[C@H]2n2cc(C(=O)NCc4ccc(F)cc4F)c(=O)c(OCOC(=O)OC(C)C)c2C3=O)C1	luminescence	50 µM
Cc1ccc(-n2nc(-c3nccc4c3CNC4=O)cc2-c2cc(F)cc(Cl)c2)cc1Cl	resazurin	>3.3 µM
COC[C@@H](C)OC(=O)OCOc1c2n(cc(C(=O)NCc3ccc(F)cc3F)c1=O)[C@@H]1CN(C2=O)[C@@H](C)CC[C@]12CC(C)=NO2	luminescence	50 µM
NC(=O)c1[nH]c2ccc(Cl)cc2c1S(=O)(=O)C1CCC1	microscopy	>10 µM
[N-]=[N+]=N[C@]1(CO)O[C@@H](n2cnc3c(N)nc(N)nc32)C[C@@H]1O	absorbance	3.2 µM
CC(C)c1c(Cc2ccccc2)n(COCc2ccccc2)c(=O)[nH]c1=O	XTT	84.6 µM
CCCCCCCCCCCCCCCCOC(=O)Oc1c2n(cc(C(=O)NCc3ccc(F)cc3F)c1=O)[C@@H]1CN(C2=O)[C@@H](C)CC[C@]12CC(C)=NO2	luminescence	50 µM
O=C1NCc2c1ccnc2-c1cc(-c2cc(Br)cc(OC(F)(F)F)c2)n(-c2ccc(F)c(Cl)c2)n1	resazurin	>3.3 µM
CC(=O)OC[C@H]1O[C@@H](n2c(-c3ccccc3)cc(-c3ccco3)c(C#N)c2=O)[C@H](OC(C)=O)[C@@H](OC(C)=O)[C@@H]1OC(C)=O	XTT	>16.8 µM
N#Cc1cc(Cl)cc(Oc2cc(F)c(Cl)c(OCc3nnc4n(O)cccc3-4)c2)c1	microscopy	>20 µM
O=C1/C(=C\c2cccc(Oc3ccc(-c4ccccc4)cc3)c2)N(CCc2cccs2)C(=S)N1CCc1cccs1	MTT / turbidity	81.95 µg/mL
CS(=O)(=O)c1ccc2c(c1)CCN2C(=O)COc1cc(Cl)cc(Oc2cc(Cl)cc(C#N)c2)c1	microscopy	>20 µM
CCOC(=O)c1[nH]c2ccc(Cl)cc2c1S(=O)(=O)CC1CC1	microscopy	>10 µM
O=C1NCc2c1ccnc2-c1cc(-c2cc(Cl)cc(C(F)(F)F)c2)n(-c2ccc(F)c(Cl)c2)n1	resazurin	>3.3 µM
C[C@H]1CC[C@]2(CC(C3CC3)=NO2)[C@H]2CN1C(=O)c1c(O)c(=O)c(C(=O)NCc3ccc(F)cc3F)cn12	luminescence	50 µM
C[C@H](NP(=O)(OC[C@@H]1C=C[C@H](n2ccc3c(N)ncnc32)C1)Oc1ccccc1)C(=O)OCc1ccccc1	trypan blue	78 µM
C[C@H]1CC[C@]2(CC(C#CC(C)(C)S(C)(=O)=O)=NO2)[C@H]2CN1C(=O)c1c(O)c(=O)c(C(=O)NCc3c(F)cc(F)cc3F)cn12	luminescence	50 µM
COC1=NO[C@@]2(CC[C@H](C)N3C[C@H]2n2cc(C(=O)NCc4ccc(F)cc4F)c(=O)c(OC(=O)CCCCCCCCCCCCCCCCC(=O)O)c2C3=O)C1	luminescence	50 µM
COC(=O)N[C@H](C(=O)NN(CCC[C@@]1(Cc2ccccc2)C(=O)N(C2c3ccccc3C[C@H]2O)C[C@H]1O)Cc1ccc(Br)cc1)C(C)(C)C	XTT	31 µM
C=C[C@]1(CO)O[C@@H](n2cnc3c(=O)[nH]c(N)nc32)C[C@@H]1O	absorbance	24.7 µM
CC(=O)OC[C@H]1O[C@@H](n2c(-c3ccc(C)cc3)cc(-c3ccco3)c(C#N)c2=O)[C@H](OC(C)=O)[C@@H](OC(C)=O)[C@H]1OC(C)=O	XTT	>16.4 µM
Cc1nnc(C(=O)N(C)C2COCCn3c2nc(C(=O)NCc2ccc(F)cc2)c(O)c3=O)o1	microscopy	>1 µM
COC(=O)N[C@H](C(=O)NN(CC[C@]1(Cc2ccccc2)C(=O)N(C2c3ccccc3C[C@H]2O)C[C@@H]1O)Cc1ccc(Br)cc1)C(C)(C)C	XTT	31 µM
CC(=O)OC[C@H]1O[C@@H](n2c(-c3ccccc3)cc(-c3ccco3)c(C#N)c2=O)[C@H](OC(C)=O)[C@@H](OC(C)=O)[C@H]1OC(C)=O	XTT	>11.9 µM
CCCCCCCCCCCCCCCC(=O)OCOc1c2n(cc(C(=O)NCc3ccc(F)cc3F)c1=O)[C@@H]1CN(C2=O)[C@@H](C)CC[C@]12CC(OC)=NO2	luminescence	50 µM
N#Cc1cc(Cl)cc(Oc2cc(OCc3nc4ccccc4s3)ccc2Cl)c1	microscopy	>20 µM
CC(=O)N1Cn2c(nc(C(=O)NCc3ccc(F)cc3)c(O)c2=O)C1(C)C	microscopy	>1 µM
O=C1NCc2c1ccnc2-c1cc(-c2cccc(OC(F)F)c2)n(-c2ccc(F)c(Cl)c2)n1	resazurin	>3.3 µM
N#Cc1cc(Cl)cc(Oc2cc(OCc3[nH]nc4nc(N5CC(CN)C5)ccc34)ccc2Cl)c1	microscopy	>20 µM
COC(=O)N[C@H](C(=O)NN(CC[C@@]1(Cc2ccccc2)C(=O)N(C2c3ccccc3C[C@H]2O)C[C@H]1O)Cc1ccc(Br)cc1)C(C)(C)C	XTT	31 µM
CN(C)C(=O)C(=O)N(C)C1CN(C2CC2)CCn2c1nc(C(=O)NCc1ccc(F)c(Cl)c1)c(O)c2=O	microscopy	>1 µM
COC(=O)C(C)(C)NP(=O)(OC[C@@H]1C=C[C@H](n2ccc3c(N)ncnc32)C1)Oc1ccccc1	trypan blue	490 µM
O=C1/C(=C\c2ccc(O)cc2)N(CCc2cccs2)C(=S)N1CCc1cccs1	MTT / turbidity	13.25 µg/mL
CN(CC(N)=O)c1ccc2c(COc3ccc(Cl)c(Oc4cc(Cl)cc(C#N)c4)c3)[nH]nc2n1	microscopy	>20 µM
COC(=O)N[C@H](C(=O)NN(CCC[C@@]1(Cc2ccccc2)C(=O)N(C2c3ccccc3C[C@H]2O)C[C@H]1O)Cc1ccc(-c2cccnc2)cc1)C(C)(C)C	XTT	31 µM
NC(=O)c1[nH]c2ccc(Cl)cc2c1S(=O)(=O)CC(F)(F)C(F)F	microscopy	>10 µM
CC(=O)OC[C@H]1O[C@@H](n2c(-c3ccc(C)cc3)cc(-c3ccccc3)c(C#N)c2=O)[C@H](OC(C)=O)[C@@H](OC(C)=O)[C@@H]1OC(C)=O	XTT	>11.7 µM
C[C@H]1CC[C@]2(CC(c3ccccn3)=NO2)[C@H]2CN1C(=O)c1c(O)c(=O)c(C(=O)NCc3ccc(F)cc3F)cn12	luminescence	50 µM
N#Cc1cccc(-c2cc(-c3cccc4c3CNC4=O)nn2-c2ccc(F)cc2)c1	resazurin	>3.3 µM
O=C1/C(=C\c2ccc([N+](=O)[O-])cc2)N(CCc2cccs2)C(=S)N1CCc1cccs1	MTT / turbidity	85.1 µg/mL
CC1c2nc(C(=O)NCc3ccc(F)cc3)c(O)c(=O)n2CCN1C	microscopy	>1 µM
CCCCCCCCCC(=O)OCOc1c2n(cc(C(=O)NCc3ccc(F)cc3F)c1=O)[C@@H]1CN(C2=O)[C@@H](C)CC[C@]12CC(OC)=NO2	luminescence	50 µM
Cc1ccc(S(=O)(=O)N2CCn3c(nc(C(=O)NCc4ccc(F)cc4)c(O)c3=O)C2)cc1	microscopy	>1 µM
O=C1NCc2c1cccc2-c1cc(-c2cc(F)cc(Cl)c2)n(-c2cccnc2)n1	resazurin	>3.3 µM
COC(=O)C(C)(C)NP(=O)(OC[C@H]1C=C[C@@H](n2ccc3c(N)ncnc32)C1)Oc1ccccc1	trypan blue	>10 µM
CCN1C[C@@]2(CC[C@H](C)N3C[C@H]2n2cc(C(=O)NCc4c(F)cc(F)cc4F)c(=O)c(O)c2C3=O)OC1=O	luminescence	50 µM
COC(=O)N[C@H](C(=O)NN(CC[C@@]1(Cc2ccccc2)C(=O)N(C2c3ccccc3C[C@H]2O)C[C@H]1O)Cc1ccc(-c2ccccn2)cc1)C(C)(C)C	XTT	31 µM
O=C(NCc1ccc(F)cc1)c1nc2n(c(=O)c1O)C(=O)N(Cc1ccccc1)CC2	microscopy	>1 µM
C[C@H]1CC[C@]2(CC(=O)N(Cc3nc4ccccc4n3C)O2)[C@H]2CN1C(=O)c1c(O)c(=O)c(C(=O)NCc3c(F)cc(F)cc3F)cn12	luminescence	50 µM
CCOC(=O)c1[nH]c2ccc(Cl)cc2c1S(=O)(=O)CC1CCC1	microscopy	>10 µM
C[C@H](NP(=O)(OC[C@H]1C=C[C@@H](n2ccc3c(N)ncnc32)C1)Oc1ccccc1)C(=O)OCc1ccccc1	trypan blue	>10 µM
Cc1cc(F)cc(-c2cc(-c3cccc4c3CNC4=O)nn2-c2ccc(F)c(Cl)c2)c1	resazurin	>3.3 µM
CCOC(=O)c1[nH]c2ccc(Cl)cc2c1SCC(F)(F)C(F)(F)F	microscopy	>10 µM
Nc1ncnc2c1ccn2[C@H]1C=C[C@@H](CO)C1	trypan blue	>200 µM
CC(C)CN(C(=O)C(=O)N(C)C)C1CN(C)CCn2c1nc(C(=O)NCc1ccc(F)cc1)c(O)c2=O	microscopy	>1 µM
N#Cc1cc(Cl)cc(Oc2cc(Cl)cc(OCC(=O)Nc3ccc4[nH]cnc4c3Cl)c2)c1	microscopy	>20 µM
CN(C)S(=O)(=O)N1CCn2c(nc(C(=O)NCc3ccc(F)cc3)c(O)c2=O)C1(C)C	microscopy	>1 µM
CC[C@]1(CO)O[C@@H](n2cnc3c(N)nc(N)nc32)C[C@@H]1O	absorbance	33.1 µM

The first 7 rows once more:

structure | method | value
N#Cc1cccc(-c2cc(-c3nccc4c3CNC4=O)nn2-c2ccc(F)cc2)c1 | resazurin | >3.3 µM
N#Cc1cc(Cl)cc(Oc2cc(Cl)cc(OCc3[nH]nc4ccccc34)c2)c1 | microscopy | >20 µM
O=C1NCc2c1ccnc2-c1cc(-c2cc(Cl)cc(OC(F)(F)F)c2)n(-c2ccc(F)c(Cl)c2)n1 | resazurin | >3.3 µM
C[C@H]1CC[C@]2(CC(=O)N(CCc3ccccc3)O2)[C@H]2CN1C(=O)c1c(O)c(=O)c(C(=O)NCc3c(F)cc(F)cc3F)cn12 | luminescence | 50 µM
COC1=NO[C@@]2(CC[C@H](C)N3C[C@H]2n2cc(C(=O)NCc4ccc(F)cc4F)c(=O)c(OCOC(=O)OC(C)C)c2C3=O)C1 | luminescence | 50 µM
Cc1ccc(-n2nc(-c3nccc4c3CNC4=O)cc2-c2cc(F)cc(Cl)c2)cc1Cl | resazurin | >3.3 µM
COC[C@@H](C)OC(=O)OCOc1c2n(cc(C(=O)NCc3ccc(F)cc3F)c1=O)[C@@H]1CN(C2=O)[C@@H](C)CC[C@]12CC(C)=NO2 | luminescence | 50 µM